Source: patent US20050203029A1, “Agents for treating <I>flaviviridae</I>infections” (priority 2002, published 2005)

Tested on: BVDV (CP7, NADL)
Experiment: Western blot of pelleted BVDV virions with anti-BVDV core antibodies
Type: cell-based, bovine viral diarrhea virus
Details: 24 or 48 hours of treatment

4-hydroxy-5-iodo-3-nitrophenylacetyl-L-leucinyl-L-leucinyl-L-leucine-vinylsulfone
production of BVDV virions (pelleted virions): block the production of BVDV virions
